Anti-infective test results gathered from many reports (values: NIAID ChemDB through PubChem).

Common to all: growth or infection tests; species: HIV-1

ECn is the concentration giving n% inhibition of infection, replication or growth. An empty or dashed field is not shown. Neighbouring rows are from separate reports.

structure	setting	method	endpoint	strain	cell line	value
CC[C@@H](C)[C@H](NC(=O)[C@@H]1CCCN1[P@](=O)(OC)[C@@H](Cc1ccccc1)NC(=O)[C@H](CC(N)=O)NC(=O)OC(C)(C)C)C(=O)NCC(C)C			EC50	RF	C8166	>100 µM
Cc1cn([C@H]2C[C@H](N=[N+]=[N-])[C@@H](CO)O2)c(=O)[nH]c1=O		cytopathic effect	EC50	RF	C8166	0.00295 µg/mL
CC(C)CCC[C@@H](C)[C@H]1CC[C@H]2[C@@H]3CC[C@H]4CC(=C(c5cc(Cl)c(O)c(C(=O)O)c5)c5cc(Cl)c(O)c(C(=O)O)c5)CC[C@]4(C)[C@H]3CC[C@]12C		cytopathic effect	EC50	RF	CEM + CEM-SS	83.3 µM
O=c1cc(CCl)nc2c3ncn([C@@H]4O[C@H](COP(=O)(O)O)[C@@H](O)[C@H]4O)c3ncn12		RT activity	EC50	LAV-1	MT-2	>200 µM
CCc1c(OC)nc(OC)c2c1CC1(CC(C)CC(C)C1)OC2=O		RT activity	EC50	LAI	CEM + CEM-SS	>100 µM
Cc1cn(-c2ccc(C(=O)NC(C)(C)C(=O)NC[C@H](O)[C@@]34CC[C@]5(C)[C@H](CC[C@@H]6[C@@]7(C)CC[C@H](OC(=O)[C@H]8C[C@@H](C(=O)O)C8(C)C)C(C)(C)[C@@H]7CC[C@]65C)C3=C(C(C)C)C(=O)C4)cc2)cn1		p24 / ELISA	EC50	92HT599	MT-2	<1 µM
Cc1ccc(Cl)c(NC(=S)NNC(=O)Cc2ccccn2)c1		cytopathic effect / MTT	EC50	IIIB	MT-4	>100 µM
O=C(NCc1ccc(OC(F)(F)F)cc1)C1CCN(CCC(c2ccccc2)c2ccccc2)CC1		luciferase	EC50		MAGI-CCR5	0.425 µM
CC(C)C1=C2[C@H]3CC[C@@H]4[C@@]5(C)CC[C@H](OC(=O)[C@H]6C[C@@H](C(=O)O)C6(C)C)C(C)(C)[C@@H]5CC[C@@]4(C)[C@]3(C)CC[C@@]2(CC(=O)N[C@H](C)CNC(=O)c2ccc(Cl)cc2)CC1=O		p24 / ELISA	EC50	92HT599	MT-2	<1 µM
Cc1cn([C@H]2C[C@H](N=[N+]=[N-])C([C@H](O)CO)O2)c(=O)[nH]c1=O		cytopathic effect / trypan blue	EC50	IIIB	MT-4	>200 µg/mL
CC1(C)Oc2ccc3c(=O)cc(NCc4ccncc4)oc3c2[C@@H](OC(=O)C23CC[C@@](C)(C(=O)O2)C3(C)C)[C@H]1OC(=O)C12CC[C@](C)(C(=O)O1)C2(C)C		luciferase / fluorescence	EC50	NL4-3	TZM-bl	21 µM
CCC(C)Sc1nc(Cc2cccc3ccccc23)c(CN2CCCCC2)c(=O)[nH]1		cytopathic effect / MTT	EC50	IIIB	MT-4	>26 µM
Cc1cccc(Cc2c3c([nH]c(=O)c2C#N)OCC3)c1		RT activity	EC50	LAI	CEM + CEM-SS	>100 µM
CC(C)CN(C[C@@H](O)[C@H](Cc1ccccc1)NC(=O)O[C@H]1CO[C@H]2OCC[C@H]21)S(=O)(=O)c1ccc(-c2cnc([C@@H](C)O)o2)cc1		MTT / absorbance	EC50	LAI	MT-2	0.0032 µM
CC(C)C1=C2[C@H]3CC[C@@H]4[C@@]5(C)CC[C@H](OC(=O)[C@H]6C[C@@H](C(=O)O)C6(C)C)C(C)(C)[C@@H]5CC[C@@]4(C)[C@]3(C)CC[C@@]2([C@@H](O)CNC(=O)C(C)(C)NC(=O)c2ccc(Cl)cc2O[C@@H]2CCOC2)CC1=O		p24 / ELISA	EC50	92HT599	MT-2	<1 µM
CC[C@H](C)[C@H](NC(=O)[C@@H]1CCCN1[P@@](=O)(OC)[C@H](Cc1ccccc1)NC(=O)OCc1ccccc1)C(=O)NCC(C)C			EC50	RF	C8166	3 µM
CC(C)(C)NC(=O)[C@@H]1CN(Cc2cncs2)CCN1C[C@@H](O)C[C@@H](Cc1ccccc1)C(=O)N[C@H]1c2ccccc2C[C@H]1O		cytopathic effect / MTT	EC50	IIIB	MT-4	0.016 µM
O=c1ccn2cnc3c(ncn3[C@@H]3O[C@H](CO)[C@@H](O)[C@H]3O)c2n1		RT activity	EC50	LAV-1	MT-2	>1500 µM
Nc1nc2c(nc(Br)n2CCOCP(=O)(O)O)c(=O)[nH]1	4 d	syncytia	EC50	IIIB	CEM	>0.16 µg/mL
Cc1cn([C@H]2C[C@H](O)[C@@H](CO)O2)c(=O)n(CCF)c1=O		microscopy	EC50	IIIB	CEM	>400 µg/mL
O=C(COc1ccc2ccccc2c1)NCc1n[nH]c(=S)n1-c1ccc(Cl)cc1		MTT	EC50	IIIB	MT-4	>20.2 µg/mL
O=C(Cc1ccccn1)NNC(=S)Nc1ccc(Cl)c(Cl)c1		cytopathic effect / MTT	EC50	IIIB	MT-4	>100 µM
Cc1ccc(NC(=O)NCCSCc2ccc(CNC(C)C)o2)cc1Cl		cytopathic effect	EC50		MAGI	<100 µM
CCC(C)[C@H](NC(=O)[C@@H]1CCCN1[P@@](=O)(OC)[C@@H](Cc1ccccc1)NC(=O)[C@H](CC(N)=O)NC(=O)OC(C)(C)C)C(=O)NCC(C)C			EC50	RF	C8166	>100 µM
Cc1cc(C)cc(Cc2c3c([nH]c(=O)c2C#N)OCC3)c1		RT activity	EC50	LAI	CEM + CEM-SS	>100 µM
O=S(=O)(NCCNC/C=C/c1ccc(Br)cc1)c1cccc2cnccc12			EC50	LAI		>16.7 µM
COc1cc([C@@H]2c3cc(OC)c(OC)cc3C[C@@H](C)[C@H]2C)ccc1O		syncytia	EC50		C8166	4.5 µM
COc1ncnc(NS(=O)(=O)c2ccc(N=C3C(=O)Nc4ccccc43)cc2)c1OC		cytopathic effect / MTT	EC50	LAI	MT-4	>104 µg/mL
CCCCCCCCCCCCCCCCOCC(COP(=O)(O)O)OCCCCCCCCCCCCCCCC		cytopathic effect / MTT	EC50	IIIB	MT-4	>5 µM
Cc1cc(C#N)cc(C)c1Oc1nc(Nc2ccc(C#N)cc2)nc(N)c1Br			EC50		TZM-bl	0.0056 µM
CC(=O)OC1C(OC(C)=O)[C@H](n2cnc3c2ncn2c(CCl)cc(=O)nc32)O[C@@H]1OC(C)=O		RT activity	EC50	LAV-1	MT-2	>200 µM
CC(C)C1=C2[C@H]3CC[C@@H]4[C@@]5(C)CC[C@H](OC(=O)[C@H]6C[C@@H](C(=O)O)C6(C)C)C(C)(C)[C@@H]5CC[C@@]4(C)[C@]3(C)CC[C@@]2([C@@H](O)CNCC(C)(C)NC(=O)c2nccs2)CC1=O		p24 / ELISA	EC50	92HT599	MT-2	<1 µM
CS(C)=O			EC50	LAI		>16.7 µM
CCN(CC)CN1C(=O)C(=Nc2ccc(S(=O)(=O)Nc3ncnc(OC)c3OC)cc2)c2ccccc21		cytopathic effect / MTT	EC50	LAI	MT-4	>118 µg/mL
CC(C)CCC[C@@H](C)[C@H]1CC[C@H]2[C@]3(C)CC[C@H]4C[C@@H](CC=C(c5cc(Cl)c(O)c(C(=O)O)c5)c5cc(Cl)c(O)c(C(=O)O)c5)CC[C@]4(C)[C@H]3CC[C@@]21C		cytopathic effect	EC50	RF	CEM + CEM-SS	25 µM
O=S(=O)(c1ccc(Cl)c2ccncc12)N1CCNCC1			EC50	LAI		>16.7 µM
Cc1ccc(Nc2nnc(Cc3ccccn3)s2)cc1Cl		cytopathic effect / MTT	EC50	IIIB	MT-4	>47 µM
COc1ncnc(NS(=O)(=O)c2ccc(N=C3C(=O)N(CN(C)C)c4ccccc43)cc2)c1OC		cytopathic effect / MTT	EC50	LAI	MT-4	>1 µg/mL
S=c1[nH]nc(Cc2ccccn2)n1-c1ccc(Cl)c(Cl)c1		cytopathic effect / MTT	EC50	IIIB	MT-4	>100 µM
CC1OC(Oc2c(-c3cc(O)c(O)c(O)c3)oc3cc(O)cc(O)c3c2=O)C(O)C(O)C1O		p24 / ELISA	EC50	IIIB	MT-4	120 µM
CC(C)CCC[C@@H](C)[C@H]1CC[C@H]2[C@@H]3C[C@@H](CCC=C(c4cc(Cl)c(O)c(C(=O)O)c4)c4cc(Cl)c(O)c(C(=O)O)c4)[C@H]4CCCC[C@]4(C)[C@H]3CC[C@]12C		cytopathic effect	EC50	RF	CEM + CEM-SS	19 µM
CC(CO)n1cnc2c(N)ncnc21		RT activity	EC50	LAV-1	MT-4	>100 µM
Cc1cn([C@H]2C[C@H](F)[C@@H](CO)O2)c(=O)[nH]c1=O		microscopy	EC50	IIIB	CEM	0.002 µg/mL
CCC(C)Sc1nc(Cc2ccccc2OC)cc(=O)[nH]1		cytopathic effect / MTT	EC50	IIIB	MT-4	0.96 µM
CC(C)(C)NC(=O)[C@@H]1C[C@@H]2CCCC[C@@H]2CN1C[C@@H](O)[C@H](Cc1ccccc1)NC(=O)[C@H]1CCCS(=O)(=O)C1		p24	EC50	IIIB	MT-4	<0.4 µM
S=c1[nH]nc(Cc2ccccn2)n1-c1cccc(Br)c1		cytopathic effect / MTT	EC50	IIIB	MT-4	>100 µM
O=C(COc1ccc2ccccc2c1)NCC(=O)NNC(=S)Nc1ccccc1		MTT	EC50	IIIB	MT-4	>67.9 µg/mL
CC[C@H](C)[C@H](NC(=O)[C@@H]1CCCN1P(=O)(OC)C(CC1CCCCC1)NC(=O)[C@@H](CC(N)=O)NC(=O)c1ccc2ccccc2n1)C(=O)NCC(C)C			EC50	RF	C8166	15 µM
O=C(COc1ccc2ccccc2c1)NCc1nnc(Sc2nc3ccccc3[nH]2)n1-c1ccccc1		MTT	EC50	IIIB	MT-4	>0.2 µg/mL
NCCNS(=O)(=O)c1cccc2c(Cl)cccc12			EC50	LAI		>16.7 µM
CC(C)C1=C2[C@H]3CC[C@@H]4[C@@]5(C)CC[C@H](OC(=O)[C@H]6C[C@@H](C(=O)O)C6(C)C)C(C)(C)[C@@H]5CC[C@@]4(C)[C@]3(C)CC[C@@]2([C@@H](O)CNC(=O)c2ccccc2Cl)CC1=O		p24 / ELISA	EC50	92HT599	MT-2	<1 µM
CC[C@H](C)[C@H](NC(=O)[C@@H](Cc1ccccc1)NP(=O)(OC)C(Cc1ccccc1)NC(=O)C(CC(N)=O)NC(=O)OC(C)(C)C)C(=O)NCC(C)C			EC50	RF	C8166	>100 µM
NC(N)=NCCNS(=O)(=O)c1cccc2cnccc12			EC50	LAI		>16.7 µM
CC(O)Cn1cnc2cnc(N)nc21		RT activity	EC50	LAV-1	MT-2	>100 µM
CC(C)C1=C2[C@H]3CC[C@@H]4[C@@]5(C)CC[C@H](OC(=O)[C@H]6C[C@@H](C(=O)O)C6(C)C)C(C)(C)[C@@H]5CC[C@@]4(C)[C@]3(C)CC[C@@]2(CCNCC2CC2)CC1=O		p24 / ELISA	EC50	92HT599	MT-2	<1 µM
Cc1cc(C)cc(S(=O)(=O)c2c(C(=O)NCC(=O)NC(C)C(=O)NN)[nH]c3ccc(Cl)cc23)c1		p24	EC90	IIIB	C8166	0.12 µM
CCC(C)Sc1nc(Cc2ccccc2)c(C)c(=O)[nH]1		cytopathic effect / MTT	EC50	IIIB	MT-4	0.6 µM
O=C(COc1ccc2ccccc2c1)NCc1n[nH]c(=S)n1-c1ccccc1		MTT	EC50	IIIB	MT-4	>20.2 µg/mL
Nc1nc(Cl)c2ncn(CCCO)c2n1		RT activity	EC50	LAV-1	MT-2	>100 µM
CC(=O)c1ncc(-c2ccc(S(=O)(=O)N(CC(C)C)C[C@@H](O)[C@H](Cc3ccccc3)NC(=O)O[C@H]3CO[C@H]4OCC[C@H]43)cc2)o1		MTT / absorbance	EC50	LAI	MT-2	0.0028 µM
CCc1nc(NCN2C(=O)C(=Nc3ccc(S(=O)(=O)Nc4ncnc(OC)c4OC)cc3)c3ccccc32)nc(N)c1-c1ccc(Cl)cc1		cytopathic effect / MTT	EC50	LAI	MT-4	>2 µg/mL
O=C(COc1ccc2ccccc2c1)NCC(=O)NNC(=S)Nc1ccc(Br)cc1		MTT	EC50	IIIB	MT-4	>31.2 µg/mL

Repeating the final 5 entries:

O=C(COc1ccc2ccccc2c1)NCc1n[nH]c(=S)n1-c1ccccc1 ; method: MTT ; endpoint: EC50 ; strain: IIIB ; cell line: MT-4 ; value: >20.2 µg/mL
Nc1nc(Cl)c2ncn(CCCO)c2n1 ; method: RT activity ; endpoint: EC50 ; strain: LAV-1 ; cell line: MT-2 ; value: >100 µM
CC(=O)c1ncc(-c2ccc(S(=O)(=O)N(CC(C)C)C[C@@H](O)[C@H](Cc3ccccc3)NC(=O)O[C@H]3CO[C@H]4OCC[C@H]43)cc2)o1 ; method: MTT / absorbance ; endpoint: EC50 ; strain: LAI ; cell line: MT-2 ; value: 0.0028 µM
CCc1nc(NCN2C(=O)C(=Nc3ccc(S(=O)(=O)Nc4ncnc(OC)c4OC)cc3)c3ccccc32)nc(N)c1-c1ccc(Cl)cc1 ; method: cytopathic effect / MTT ; endpoint: EC50 ; strain: LAI ; cell line: MT-4 ; value: >2 µg/mL
O=C(COc1ccc2ccccc2c1)NCC(=O)NNC(=S)Nc1ccc(Br)cc1 ; method: MTT ; endpoint: EC50 ; strain: IIIB ; cell line: MT-4 ; value: >31.2 µg/mL